Patent publication US20070099199A1
Values joined by “and” are separate entries in the source; they are usually repeats but may differ in a detail not shown here. Equal entries are not always repeated.

B1: GST-MAGI 1 PDZ domain 2 (protein)
chain: MSPILGYWKIKGLVQPTRLLLEYLEEKYEEHLYERDEGDKWRNKKFELGLEFPNLPYYIDGDVKLTQSMAIIRYIADKHNMLGGCPKERAEISMLEGAVLDIRYGVSRIAYSKDFETLKVDFLSKLPEMLKMFEDRLCHKTYLNGDHVTHPDFMLYDALDVVLYMDPMCLDAFPKLVCFKKRIEAIPQIDKYLKSSKYIAWPLQGWQATFGGGDHPPKSDLIEGRPSELKGKFIHTKLRKSSRGFGFTVVGGDEPDEFLQIKSLVLDGPAALDGKMETGDVIVSVNDTCVLGHTHAQVVKIFQSIPIGASVDLELCRGYPLPFDPDDPN
B2: GST-CASK PDZ domain 1 (protein)
chain: MSPILGYWKIKGLVQPTRLLLEYLEEKYEEHLYERDEGDKWRNKKFELGLEFPNLPYYIDGDVKLTQSMAIIRYIADKHNMLGGCPKERAEISMLEGAVLDIRYGVSRIAYSKDFETLKVDFLSKLPEMLKMFEDRLCHKTYLNGDHVTHPDFMLYDALDVVLYMDPMCLDAFPKLVCFKKRIEAIPQIDKYLKSSKYIAWPLQGWQATFGGGDHPPKSDLIEGRTRVRLVQFQKNTDEPMGITLKMNELNHCIVARIMHGGMIHRQGTLHVGDEIREINGISVANQTVEQLQKMLREMRGSITFKIVPSYRTQS
B3: GST-ERBIN PDZ domain 1 (protein)
chain: MSPILGYWKIKGLVQPTRLLLEYLEEKYEEHLYERDEGDKWRNKKFELGLEFPNLPYYIDGDVKLTQSMAIIRYIADKHNMLGGCPKERAEISMLEGAVLDIRYGVSRIAYSKDFETLKVDFLSKLPEMLKMFEDRLCHKTYLNGDHVTHPDFMLYDALDVVLYMDPMCLDAFPKLVCFKKRIEAIPQIDKYLKSSKYIAWPLQGWQATFGGGDHPPKSDLIEGRQGHELAKQEIRVRVEKDPELGFSISGGVGGRGNPFRPDDDGIFVTRVQPEGPASKLLQPGDKIIQANGYSFINIEHGQAVSLLKTFQNTVELIIVREVSS
B4: GST-INADL PDZ domain 4 (protein)
chain: MSPILGYWKIKGLVQPTRLLLEYLEEKYEEHLYERDEGDKWRNKKFELGLEFPNLPYYIDGDVKLTQSMAIIRYIADKHNMLGGCPKERAEISMLEGAVLDIRYGVSRIAYSKDFETLKVDFLSKLPEMLKMFEDRLCHKTYLNGDHVTHPDFMLYDALDVVLYMDPMCLDAFPKLVCFKKRIEAIPQIDKYLKSSKYIAWPLQGWQATFGGGDHPPKSDLIEGRNSDDAELQKYSKLLPIHTLRLGVEVDSFDGHHYISSIVSGGPVDTLGLLQPEDELLEVNGMQLYGKSRREAVSFLKEVPPPFTLVCCRRLFDDEAS
B5: GST-ZO-2 PDZ domain 2 (protein)
chain: MSPILGYWKIKGLVQPTRLLLEYLEEKYEEHLYERDEGDKWRNKKFELGLEFPNLPYYIDGDVKLTQSMAIIRYIADKHNMLGGCPKERAEISMLEGAVLDIRYGVSRIAYSKDFETLKVDFLSKLPEMLKMFEDRLCHKTYLNGDHVTHPDFMLYDALDVVLYMDPMCLDAFPKLVCFKKRIEAIPQIDKYLKSSKYIAWPLQGWQATFGGGDHPPKSDLIEGRRVLLMKSRANEEYGLRLGSQIFVKEMTRTGLATKDGNLHEGDIILKINGTVTENMSLTDARKLIEKSRGKLQLVVLRDS
B6: GST-TIAM 2 PDZ domain 1 (protein)
chain: MSPILGYWKIKGLVQPTRLLLEYLEEKYEEHLYERDEGDKWRNKKFELGLEFPNLPYYIDGDVKLTQSMAIIRYIADKHNMLGGCPKERAEISMLEGAVLDIRYGVSRIAYSKDFETLKVDFLSKLPEMLKMFEDRLCHKTYLNGDHVTHPDFMLYDALDVVLYMDPMCLDAFPKLVCFKKRIEAIPQIDKYLKSSKYIAWPLQGWQATFGGGDHPPKSDLIEGRPLNVYDVQLTKTGSVCDFGFAVTAQVDERQHLSRIFISDVLPDGLAYGEGLRKGNEIMTLNGEAVSDLDLKQMEALFSEKSVGLTLIARPPDTKATL
B7: GST-MAGI1 PDZ domain 3 (protein)
chain: MSPILGYWKIKGLVQPTRLLLEYLEEKYEEHLYERDEGDKWRNKKFELGLEFPNLPYYIDGDVKLTQSMAIIRYIADKHNMLGGCPKERAEISMLEGAVLDIRYGVSRIAYSKDFETLKVDFLSKLPEMLKMFEDRLCHKTYLNGDHVTHPDFMLYDALDVVLYMDPMCLDAFPKLVCFKKRIEAIPQIDKYLKSSKYIAWPLQGWQATFGGGDHPPKSDLIEGRPATQPELITVHIVKGPMGFGFTIADSPGGGGQRVKQIVDSPRCRGLKEGDLIVEVNKKNVQALTHNQVVDMLVECPKGSEVTLLVQRGGNLS
B8: GST-Numb Binding Protein PDZ domain 1 (protein)
chain: MSPILGYWKIKGLVQPTRLLLEYLEEKYEEHLYERDEGDKWRNKKFELGLEFPNLPYYIDGDVKLTQSMAIIRYIADKHNMLGGCPKERAEISMLEGAVLDIRYGVSRIAYSKDFETLKVDFLSKLPEMLKMFEDRLCHKTYLNGDHVTHPDFMLYDALDVVLYMDPMCLDAFPKLVCFKKRIEAIPQIDKYLKSSKYIAWPLQGWQATFGGGDHPPKSDLIEGRPDGEITSIKINRVDPSESLSIRLVGGSETPLVHIIIQHIYRDGVIARDGRLLPGDIILKVNGMDISNVPHNYAVRLLRQPCQVLWLTVMREQKFRSRNSS
B9: GST-X-11 beta PDZ domain 1 (protein)
chain: MSPILGYWKIKGLVQPTRLLLEYLEEKYEEHLYERDEGDKWRNKKFELGLEFPNLPYYIDGDVKLTQSMAIIRYIADKHNMLGGCPKERAEISMLEGAVLDIRYGVSRIAYSKDFETLKVDFLSKLPEMLKMFEDRLCHKTYLNGDHVTHPDFMLYDALDVVLYMDPMCLDAFPKLVCFKKRIEAIPQIDKYLKSSKYIAWPLQGWQATFGGGDHPPKSDLIEGRIHFSNSENCKELQLEKHKGEILGVVVVESGWGSILPTVILANMMNGGPAARSGKLSIGDQIMSINGTSLVGLPLATCQGIIKGLKNQTQVKLNIVSCPPVTTVLIKRNSS
B10: GST-GTPase Activating Enzyme PDZ domain 1 (protein)
chain: MSPILGYWKIKGLVQPTRLLLEYLEEKYEEHLYERDEGDKWRNKKFELGLEFPNLPYYIDGDVKLTQSMAIIRYIADKHNMLGGCPKERAEISMLEGAVLDIRYGVSRIAYSKDFETLKVDFLSKLPEMLKMFEDRLCHKTYLNGDHVTHPDFMLYDALDVVLYMDPMCLDAFPKLVCFKKRIEAIPQIDKYLKSSKYIAWPLQGWQATFGGGDHPPKSDLIEGRSRGCETRELALPRDGQGRLGFEVDAEGFVTHVERFTFAETAGLRPGARLLRVCGQTLPSLRPEAAAQLLRSAPKVCVTVLPPDESGRP
B11: GST-KIAA0561 PDZ domain 1 (protein)
chain: MSPILGYWKIKGLVQPTRLLLEYLEEKYEEHLYERDEGDKWRNKKFELGLEFPNLPYYIDGDVKLTQSMAIIRYIADKHNMLGGCPKERAEISMLEGAVLDIRYGVSRIAYSKDFETLKVDFLSKLPEMLKMFEDRLCHKTYLNGDHVTHPDFMLYDALDVVLYMDPMCLDAFPKLVCFKKRIEAIPQIDKYLKSSKYIAWPLQGWQATFGGGDHPPKSDLIEGRLCGSLRPPIVIHSSGKKYGFSLRAIRVYMGDSDVYTVHHVVWSVEDGSPAQEAGLRAGDLITHINGESVLGLVHMDVVELLLKSGNKISLRTTALENTSIKVG
B12: GST-KIAA1719 PDZ domain 3 (protein)
chain: MSPILGYWKIKGLVQPTRLLLEYLEEKYEEHLYERDEGDKWRNKKFELGLEFPNLPYYIDGDVKLTQSMAIIRYIADKHNMLGGCPKERAEISMLEGAVLDIRYGVSRIAYSKDFETLKVDFLSKLPEMLKMFEDRLCHKTYLNGDHVTHPDFMLYDALDVVLYMDPMCLDAFPKLVCFKKRIEAIPQIDKYLKSSKYIAWPLQGWQATFGGGDHPPKSDLIEGRIQIVHTETTEVVLCGDPLSGFGLQLQGGIFATETLSSPPLVCFIEPDSPAERCGLLQVGDRVLSINGIATEDGTMEEANQLLRDAALAHKVVLEVEFDVAESV
B13: GST-EZRIN Binding Protein 50 PDZ domain 2, clone #168.2 (protein)
chain: MSPILGYWKIKGLVQPTRLLLEYLEEKYEEHLYERDEGDKWRNKKFELGLEFPNLPYYIDGDVKLTQSMAIIRYIADKHNMLGGCPKERAEISMLEGAVLDIRYGVSRIAYSKDFETLKVDFLSKLPEMLKMFEDRLCHKTYLNGDHVTHPDFMLYDALDVVLYMDPMCLDAFPKLVCFKKRIEAIPQIDKYLKSSKYIAWPLQGWQATFGGGDHPPKSDLIEGRIRLCTMKKGPSGYGFNLHSDKSKPGQFIRSVDPDSPAEASGLRAQDRIVEVNGVCMEGKQHGDVVSAIRAGGDETKLLVVDRETDEFFMNSS
B14: GST-Serine Protease PDZ domain 1 (protein)
chain: MSPILGYWKIKGLVQPTRLLLEYLEEKYEEHLYERDEGDKWRNKKFELGLEFPNLPYYIDGDVKLTQSMAIIRYIADKHNMLGGCPKERAEISMLEGAVLDIRYGVSRIAYSKDFETLKVDFLSKLPEMLKMFEDRLCHKTYLNGDHVTHPDFMLYDALDVVLYMDPMCLDAFPKLVCFKKRIEAIPQIDKYLKSSKYIAWPLQGWQATFGGGDHPPKSDLIEGRRGEKKNSSSGISGSQRRYIGVMMLTLSPSILAELQLREPSFPDVQHGVLIHKVILGSPAHRAGLRPGDVILAIGEQMVQNAEDVYEAVRTQSQLAVQIRRGRETLTLYV
B15: GST-CARD14 PDZ domain 1 (protein)
chain: MSPILGYWKIKGLVQPTRLLLEYLEEKYEEHLYERDEGDKWRNKKFELGLEFPNLPYYIDGDVKLTQSMAIIRYIADKHNMLGGCPKERAEISMLEGAVLDIRYGVSRIAYSKDFETLKVDFLSKLPEMLKMFEDRLCHKTYLNGDHVTHPDFMLYDALDVVLYMDPMCLDAFPKLVCFKKRIEAIPQIDKYLKSSKYIAWPLQGWQATFGGGDHPPKSDLIEGRILSQVTMLAFQGDALLEQISVIGGNLTGIFIHRVTPGSAADQMALRPGTQIVMVDYEASEPLFKAVLEDTTLEEAVGLLRRVDGFCCLSVKVNTDGYKRL

Target: HPV E6 #16 PDZ ligand peptide (C-terminal peptide of the E6 protein of HPV 16) (HPV 16)
Assay: G assay ELISA, immobilised GST-PDZ, biotin peptide 10 uM

With B1 the Ave OD was 4.11 A450 nm.

B1 gave an OD S/N (ratio to GST-only well) of 19.5.

Target: HPV16 E6 C-terminal PDZ ligand (PL) peptide, biotinylated (human papillomavirus type 16)
Assay: G assay ELISA; immobilised GST-PDZ, biotin-peptide 10 uM

First: B2
Second: B4
The Ave OD of the first is higher: 0.36 A450 nm for the first, 0.357 A450 nm for the second.

B5 and B6 are the same in Ave OD: 0.356 A450 nm for the first, 0.356 A450 nm for the second.

Going from B7 to B8, the Ave OD falls from 0.354 A450 nm to 0.352 A450 nm.

Compared with B9, B10 is lower in Ave OD: 0.352 A450 nm for the first, 0.35 A450 nm for the second.

Compared with B11, B12 is lower in Ave OD: 0.347 A450 nm for the first, 0.346 A450 nm for the second.

Going from B13 to B14, the Ave OD falls from 0.345 A450 nm to 0.343 A450 nm.

Work on B15 yielded an Ave OD of 0.342 A450 nm.

Compared with B2, B4 is higher in OD S/N (ratio vs GST only): 1.15 for the first, 2.15 for the second.

Compared with B5, B6 is lower in OD S/N (ratio vs GST only): 2.15 for the first, 2.05 for the second.

Compared with B7, B8 is higher in OD S/N (ratio vs GST only): 1.46 for the first, 3.17 for the second.

First: B9
Second: B10
The OD S/N (ratio vs GST only) of the first is higher: 2.02 for the first, 1.12 for the second.

First: B11
Second: B12
The OD S/N (ratio vs GST only) of the first is higher: 2.44 for the first, 1.65 for the second.

Compared with B13, B14 is lower in OD S/N (ratio vs GST only): 1.99 for the first, 1.55 for the second.

In the case of B15, the OD S/N (ratio vs GST only) is reported as 1.52.

With B3 the Ave OD was 0.36 A450 nm and 0.342 A450 nm.

With B3 the OD S/N (ratio vs GST only) was 1.82 and 1.3.
